A mixed list of measured activities; the numbers were collected in NIAID ChemDB.

All rows: toxicity to cultured cells; cell line: L1210; read-out: CC50

CCn is the concentration with n% toxicity to the cells.

smiles | method | value
N#Cc1cnn(Cc2ccccc2)c1/N=c1\ssnc1Cl |  | 8 µM
CO/C=C1\C[C@H](/C=C/c2ccccc2)OC1=O |  | >50 µg/mL
Cc1cn(C2C[C@H](F)[C@@H](COP(=O)(N[C@@H](C)C(=O)OC(C)C)Oc3ccccc3)O2)c(=O)[nH]c1=O | cell count | >250 µM
Nc1nc(OC[C@H]2CC[C@@H](COCc3ccccc3)O2)cc(OC[C@@H]2CC[C@H](COCc3ccccc3)O2)n1 |  | 25 µM
CC(C)(C)n1ncc(C#N)c1/N=c1\ssnc1Cl |  | 5 µM
Nc1nc(N)c2nc(CNc3ccc(C(=O)NC(CCP(=O)(O)O)C(=O)O)cc3)cnc2n1 |  | 0.067 µM
CO[C@H]1O[C@H](Cn2c(C)cc(=O)[nH]c2=O)[C@H](O)[C@H]1OCc1ccccc1F |  | ≥250 µM
N#Cc1cnn(-c2ccccc2)c1/N=c1\ssnc1Cl |  | 7.5 µM
CCCCC(=O)OC1CC(OC(C)C(C)C(O)C(C)C(O)C(C)C2OC(=O)/C=C/CC(O)CC(O)CC(O)CCC(C)C(O)C[C@@]3(O)O[C@H](CC(O)CC(OC(=O)CC(=O)O)CCCC(O)C4OC4C2C)C[C@H](O)[C@H]3O)OC(C)C1O |  | >100 µg/mL
c1ccc(COC[C@H]2CC[C@@H](COc3cc(OC[C@H]4CC[C@@H](COCc5ccccc5)O4)ncn3)O2)cc1 |  | 20 µM
Cn1ncc(C#N)c1/N=c1\ssnc1Cl |  | 5 µM
Nc1nc(N)nc(OC[C@H]2CC[C@@H](COCc3ccccc3)O2)n1 |  | 235 µM
Nc1nc(N)c2nc(CNc3ccc(C(=O)NC(CCCP(=O)(O)O)C(=O)O)cc3)cnc2n1 |  | 0.12 µM
Nc1ccnc(OC[C@H]2CC[C@@H](COCc3ccccc3)O2)n1 |  | ≥250 µM
CO/C=C(/C(=O)OC)[C@H](C)[C@H](/C=C/c1ccccc1)OC(C)=O |  | 25 µg/mL
Nc1ccnc(OC[C@H]2CC[C@@H](CO)O2)n1 |  | ≥250 µM
CO[C@H]1O[C@H](Cn2cc(Br)c(=O)[nH]c2=O)[C@H](O)[C@H]1OCc1ccccc1F |  | >250 µM
Nc1cc(OC[C@H]2CC[C@@H](CO)O2)nc(N)n1 |  | >250 µM
N#Cc1ncn(CCc2ccccc2)c1/N=c1\ssnc1Cl |  | 3 µM

Again, the opening 2 rows:

| smiles | method | value |
|---|---|---|
| N#Cc1cnn(Cc2ccccc2)c1/N=c1\ssnc1Cl |  | 8 µM |
| CO/C=C1\C[C@H](/C=C/c2ccccc2)OC1=O |  | >50 µg/mL |

Blank or dashed fields: not listed here. Neighbouring rows are from separate reports.